Assay results taken from ChEMBL document CHEMBL5244272 (Eur J Med Chem, 2021).
Converted amounts (≈) assume the structure as drawn.

System: Plasmodium falciparum
Test: Antimalarial activity against Plasmodium falciparum 3D7
Type: functional, organism-based

## CC1OOC(C)(C)OO1
  IC50: 1.95 µg/mL (≈ 14.6 µM)
